Reference: patent EP4821928A1, “BICYCLIC HETEROCYCLIC COMPOUND AND FUNGICIDE FOR AGRICULTURAL AND HORTICULTURAL USE CONTAINING SAME AS ACTIVE INGREDIENT” (dated 2026)

How the values were obtained:
[1] = test system: Magnaporthe grisea; assay: Rice blast disease pot test (Test Example A); conditions: for Rice blast disease pot test (control value): 250 ppm sprayed, 2.5 ml/pot, rice variety Sachikaze, degree of disease development 6 to 8 days after inoculation
[2] = test system: Botrytis cinerea; assay: Tomato gray mold pot test (Test Example B); conditions: for Tomato gray mold pot test (control value): 250 ppm sprayed, 2.5 ml/pot, tomato variety Oogata Fukuju, degree of disease development 2 to 3 days after inoculation
[3] = test system: Gray mold fungus (Botrytis cinerea); assay: Gray mold anti-germ test (Test Example C); conditions: for Gray mold anti-germ test (rate of inhibition): 50 ppm/well, Czapek-dox broth, 25°C for 3 days, absorbance 600 nm
[4] = test system: Fusarium blight fungus (Fusarium graminearum); assay: Fusarium blight anti-germ test (Test Example D); conditions: for Fusarium blight anti-germ test (rate of inhibition): 50 ppm/well, Czapek-dox broth, 25°C for 3 days, absorbance 600 nm
[5] = test system: Anthracnose fungus (Glomerella cingulata); assay: Anthracnose anti-germ test (Test Example E); conditions: for Anthracnose anti-germ test (rate of inhibition): 50 ppm/well, Czapek-dox broth, 25°C for 3 days, absorbance 600 nm
[6] = test system: Speckled leaf blotch fungus (Septoria tritici); assay: Speckled leaf blotch anti-germ test (Test Example F); conditions: for Speckled leaf blotch anti-germ test (rate of inhibition): 50 ppm/well, Czapek-dox broth, 25°C for 3 days, absorbance 600 nm

Compound	control value ([1]; Test Example A, rice blast disease pot test)	control value ([2]; Test Example B, tomato gray mold pot test)	rate of inhibition ([3]; Test Example C, gray mold anti-germ test)	rate of inhibition ([4]; Test Example D, Fusarium blight anti-germ test)	rate of inhibition ([5]; Test Example E, anthracnose anti-germ test)	rate of inhibition ([6]; Test Example F, speckled leaf blotch anti-germ test)	Rice blast disease pot test (control value) [1]	Tomato gray mold pot test (control value) [2]	Gray mold anti-germ test (rate of inhibition) [3]	Fusarium blight anti-germ test (rate of inhibition) [4]	Anthracnose anti-germ test (rate of inhibition) [5]	Speckled leaf blotch anti-germ test (rate of inhibition) [6]
CCCCCC1(C)N=C(c2cnn3cc(C)cnc23)c2cccc(F)c2O1 (stereo not drawn)	H (H represents a control value or rate of inhibition of larger than 50%)	H (H represents a control value or rate of inhibition of larger than 50%)	H (H represents a control value or rate of inhibition of larger than 50%)	H (H represents a control value or rate of inhibition of larger than 50%)	H (H represents a control value or rate of inhibition of larger than 50%)	H (H represents a control value or rate of inhibition of larger than 50%)						
COc1cccc2c1OC(C)(C)N=C2n1cnc2c(C(F)(F)F)cccc21							H (H represents a control value or rate of inhibition of larger than 50%)	H (H represents a control value or rate of inhibition of larger than 50%)	L (L represents a control value or rate of inhibition of 50% or less)	L (L represents a control value or rate of inhibition of 50% or less)	L (L represents a control value or rate of inhibition of 50% or less)	L (L represents a control value or rate of inhibition of 50% or less)
Cc1cccc2c1OC1(CCC1)N=C2n1cnc2c(C)cccc21							H (H represents a control value or rate of inhibition of larger than 50%)	H (H represents a control value or rate of inhibition of larger than 50%)	H (H represents a control value or rate of inhibition of larger than 50%)	H (H represents a control value or rate of inhibition of larger than 50%)	H (H represents a control value or rate of inhibition of larger than 50%)	H (H represents a control value or rate of inhibition of larger than 50%)
Cc1c(F)ccc2c1ncn2C1=NC(C)(C)Oc2cc(Br)ccc21							L (L represents a control value or rate of inhibition of 50% or less)	H (H represents a control value or rate of inhibition of larger than 50%)	H (H represents a control value or rate of inhibition of larger than 50%)	L (L represents a control value or rate of inhibition of 50% or less)	L (L represents a control value or rate of inhibition of 50% or less)	L (L represents a control value or rate of inhibition of 50% or less)
Cc1ccc2c(C3=NC(C)(C)Oc4ccccc43)cnn2c1C							H (H represents a control value or rate of inhibition of larger than 50%)	H (H represents a control value or rate of inhibition of larger than 50%)	H (H represents a control value or rate of inhibition of larger than 50%)	H (H represents a control value or rate of inhibition of larger than 50%)	H (H represents a control value or rate of inhibition of larger than 50%)	H (H represents a control value or rate of inhibition of larger than 50%)
Cc1ccc2c(c1)C(n1cnc3c(C)c(C)ccc31)=NC(C)(C)O2							H (H represents a control value or rate of inhibition of larger than 50%)	H (H represents a control value or rate of inhibition of larger than 50%)	H (H represents a control value or rate of inhibition of larger than 50%)	H (H represents a control value or rate of inhibition of larger than 50%)	H (H represents a control value or rate of inhibition of larger than 50%)	H (H represents a control value or rate of inhibition of larger than 50%)
Cc1cccc2c1ncn2C1=NC(C)(C)Oc2ccccc21							H (H represents a control value or rate of inhibition of larger than 50%)	H (H represents a control value or rate of inhibition of larger than 50%)	H (H represents a control value or rate of inhibition of larger than 50%)	H (H represents a control value or rate of inhibition of larger than 50%)	H (H represents a control value or rate of inhibition of larger than 50%)	H (H represents a control value or rate of inhibition of larger than 50%)
Cc1ccc2c(c1)OC(C)(C)N=C2n1cnc2c(F)cccc21							H (H represents a control value or rate of inhibition of larger than 50%)	H (H represents a control value or rate of inhibition of larger than 50%)	H (H represents a control value or rate of inhibition of larger than 50%)	H (H represents a control value or rate of inhibition of larger than 50%)	H (H represents a control value or rate of inhibition of larger than 50%)	L (L represents a control value or rate of inhibition of 50% or less)
Cc1cccc2c1OC(C)(C)N=C2n1c(C)nc2c(C)c(C)ccc21							H (H represents a control value or rate of inhibition of larger than 50%)	H (H represents a control value or rate of inhibition of larger than 50%)	H (H represents a control value or rate of inhibition of larger than 50%)	H (H represents a control value or rate of inhibition of larger than 50%)	H (H represents a control value or rate of inhibition of larger than 50%)	H (H represents a control value or rate of inhibition of larger than 50%)
CCc1cccc2c1ncn2C1=NC(C)(C)Oc2c(C)cccc21							H (H represents a control value or rate of inhibition of larger than 50%)	H (H represents a control value or rate of inhibition of larger than 50%)	H (H represents a control value or rate of inhibition of larger than 50%)	L (L represents a control value or rate of inhibition of 50% or less)	H (H represents a control value or rate of inhibition of larger than 50%)	H (H represents a control value or rate of inhibition of larger than 50%)
Cc1ccc2c(ncn2C2=NC(C)(C)Sc3c(F)cccc32)c1C							H (H represents a control value or rate of inhibition of larger than 50%)	H (H represents a control value or rate of inhibition of larger than 50%)	H (H represents a control value or rate of inhibition of larger than 50%)	H (H represents a control value or rate of inhibition of larger than 50%)	H (H represents a control value or rate of inhibition of larger than 50%)	H (H represents a control value or rate of inhibition of larger than 50%)
CC1(C)N=C(n2cnc3c(Cl)cccc32)c2ccc(F)c(F)c2O1							H (H represents a control value or rate of inhibition of larger than 50%)	H (H represents a control value or rate of inhibition of larger than 50%)	H (H represents a control value or rate of inhibition of larger than 50%)	L (L represents a control value or rate of inhibition of 50% or less)	L (L represents a control value or rate of inhibition of 50% or less)	L (L represents a control value or rate of inhibition of 50% or less)
Cc1ccc2c(C3=NC(C)(C)Sc4c(F)cccc43)cnn2c1C							H (H represents a control value or rate of inhibition of larger than 50%)	H (H represents a control value or rate of inhibition of larger than 50%)	H (H represents a control value or rate of inhibition of larger than 50%)	H (H represents a control value or rate of inhibition of larger than 50%)	H (H represents a control value or rate of inhibition of larger than 50%)	H (H represents a control value or rate of inhibition of larger than 50%)
CNc1ccc2c(c1)OC(C)(C)N=C2n1cnc2c(C)c(C)ccc21							H (H represents a control value or rate of inhibition of larger than 50%)	H (H represents a control value or rate of inhibition of larger than 50%)	H (H represents a control value or rate of inhibition of larger than 50%)	H (H represents a control value or rate of inhibition of larger than 50%)	H (H represents a control value or rate of inhibition of larger than 50%)	H (H represents a control value or rate of inhibition of larger than 50%)
